Activation data for 83 compounds are collected here from PubChem BioAssay AID1448 (The Scripps Research Institute Molecular Screening Center, 2008).

By UniProt entry, the sequences of proteins in these tests, tags left out.
UniProt Q8TDD5, whole entry: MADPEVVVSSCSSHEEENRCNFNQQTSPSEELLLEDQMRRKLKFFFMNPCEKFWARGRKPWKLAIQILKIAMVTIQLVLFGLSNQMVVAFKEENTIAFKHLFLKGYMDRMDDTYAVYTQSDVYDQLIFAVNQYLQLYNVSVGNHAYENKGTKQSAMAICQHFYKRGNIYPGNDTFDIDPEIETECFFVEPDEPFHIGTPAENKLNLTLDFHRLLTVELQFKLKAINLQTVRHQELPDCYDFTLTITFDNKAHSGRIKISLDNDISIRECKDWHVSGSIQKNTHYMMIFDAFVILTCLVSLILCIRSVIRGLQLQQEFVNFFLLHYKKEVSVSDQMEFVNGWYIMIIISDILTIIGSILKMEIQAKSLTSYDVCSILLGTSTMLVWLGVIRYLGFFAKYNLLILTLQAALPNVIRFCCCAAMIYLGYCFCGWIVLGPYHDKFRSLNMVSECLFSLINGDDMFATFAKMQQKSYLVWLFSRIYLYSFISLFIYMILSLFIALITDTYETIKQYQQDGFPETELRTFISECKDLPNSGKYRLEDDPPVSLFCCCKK

Structures are written as SMILES. The entries are a selection whose mix differs from that of the whole data set. Calls of active or inactive are those of the source.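 The calls were made as follows: active = activation above its plate's cutoff, the mean activation of the plate's test wells plus 3 SD (cut at about 12% in these data); inactive = the rest.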

The assay addresses Mucolipin-3 (Homo sapiens) (UniProt Q8TDD5). Briefly: human TRPML3 channel agonists, primary screen, cell-based, HEK293 TRPML3-YFP, Fluo-8 calcium fluorescence, 3 µM (AID 1448).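 Also: 0% = DMSO only wells and 100% = carbachol wells.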 The note with it: at 3 µM, stronger effect = higher value, 100% = the carbachol control signal. The gist of the method:
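Test system: HEK293 cells stably carrying human TRPML3-YFP; Doses: single dose, 3 µM final nominal compound, 0.3% DMSO final; Schedule: dye loading 1 h 37 °C then 30 min ambient, 125 s read; Technique: Fluo-8 calcium fluorescence; Benchmarks: high control carbachol 87 µM, low control DMSO.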
On to `CCCOc1ccc(NP(C)(=O)Oc2ccc(Cl)cc2)cc1` (stereo not drawn), for which the activation was inactive: -1.61%.
`CP(=O)(Nc1ccc(SC(F)(F)F)cc1)Oc1ccccc1` (stereo not drawn): the activation is inactive: 1.22%.
With `CN1CCCCC1COC(=O)C1(O)c2ccccc2CCc2ccccc21` (stereo not drawn) the figure was inactive: 0.77%; with `COc1ccccc1OP(C)(=O)Nc1c(C)cccc1C` (stereo not drawn), inactive: -0.4%.
With `CCOC(=O)C(CC)C1=NC(C)(C)Cc2ccccc21.O=[N+]([O-])c1cc([N+](=O)[O-])c(O)c([N+](=O)[O-])c1` (stereo not drawn) the figure was inactive: -0.34%; with `O=[N+]([O-])c1cc([N+](=O)[O-])c(Nc2nnnn2CCO)c([N+](=O)[O-])c1`, inactive: 0.25%.
To `Cc1nc2ccc3ccccc3c2s1.O=[N+]([O-])c1cc([N+](=O)[O-])c(O)c([N+](=O)[O-])c1` belongs inactive: -0.03%; to `O=[N+]([O-])c1cc([N+](=O)[O-])c(-n2nnc3ccccc32)c([N+](=O)[O-])c1`, inactive: 0.52%; to `Cc1ccc(C)c(NP(C)(=O)Oc2ccccc2)c1` (stereo not drawn), inactive: -0.15%.
`Cc1cc(C)cc(OP(C)(=O)Nc2ccccn2)c1` (stereo not drawn): the activation is inactive: -0.19%.
With `CP(=O)(Nc1cccc(Br)c1)Oc1ccccc1` (stereo not drawn) the figure was inactive: 0.63%; with `CCOC(=O)c1ccc(NP(C)(=O)Oc2cc(C)cc(C)c2)cc1` (stereo not drawn), inactive: -0.19%; with `Cc1cc(C)cc(OP(C)(=O)Nc2ccc(C)cc2C)c1` (stereo not drawn), inactive: -0.91%.
To `COc1ccccc1OP(C)(=O)Nc1cccc(Br)c1` (stereo not drawn) belongs inactive: 0.38%; to `CC1=NCCc2c1[nH]c1ccccc21.O=[N+]([O-])c1cc([N+](=O)[O-])c(O)c([N+](=O)[O-])c1`, inactive: 0.09%; to `O=C(O)c1cccc(Nc2c([N+](=O)[O-])cc([N+](=O)[O-])cc2[N+](=O)[O-])c1`, inactive: 0.36%.
`Cc1cc(C)cc(OP(C)(N)=O)c1` (stereo not drawn): the activation was inactive: 0.3%.
With `COc1ccc(OP(C)(=O)Nc2cccc(F)c2)cc1` (stereo not drawn), the activation is inactive: 0.21%.
With `COc1ccccc1OP(C)(=O)Nc1cc(Cl)ccc1C` (stereo not drawn), the activation is inactive: 0.38%.
For the compound `Cc1ccc(NP(C)(=O)Oc2ccccc2)c(C)c1` (stereo not drawn), the activation was inactive: 0.2%.
With `COc1ccccc1OP(C)(=O)Nc1ccc(C)cc1` (stereo not drawn) the figure was inactive: 0.52%.
To `CCOC(=O)c1ccc(NP(C)(=O)Oc2ccccc2)cc1` (stereo not drawn) belongs inactive: 0.92%; to `O=[N+]([O-])c1ccc2c(c1)C=Nc1ccccc1O2`, inactive: 0.22%; to `Cc1cccc(C)c1OP(C)(N)=O` (stereo not drawn), inactive: 0.69%.
With `CC(C)(C)c1ccc(OP(C)(=O)Nc2ccc(SC(F)(F)F)cc2)cc1` (stereo not drawn) the figure was inactive: 0.36%.
For the compound `CCN(CC)CCCOC(=O)C(O)(c1ccccc1)c1ccccc1`, the activation was inactive: -0.25%.
`CP(=O)(Nc1ccccn1)Oc1ccc(Cl)cc1` (stereo not drawn): the activation is inactive: 0.75%.
With `CCOC(=O)c1ccc(NP(C)(=O)Oc2ccc(OC)cc2)cc1` (stereo not drawn) the figure was inactive: -0.4%.
To `CCOP(C)(=S)SCC(=O)NC(C)C(=O)O` (stereo not drawn) belongs inactive: 0.35%; to `Cc1cc(C)cc(OP(C)(=O)Nc2ccc(SC(F)(F)F)cc2)c1` (stereo not drawn), inactive: -0.32%.
With `CP(=O)(NC(=O)Nc1ccccc1)Oc1ccccc1` (stereo not drawn) the figure was inactive: -0.48%; with `CCc1ccc(OP(C)(=O)N2CCN(c3ccc([N+](=O)[O-])cc3)CC2)cc1` (stereo not drawn), inactive: 2.01%.
With `CP(=O)(Oc1ccccc1)OC(c1ccccc1)C(F)(F)F` (stereo not drawn), the activation was inactive: 0.31%.
To `CP(=O)(Nc1ccc(SC(F)(F)F)cc1)Oc1ccc(Cl)cc1` (stereo not drawn) belongs inactive: 1.17%; to `Cc1cccc(C)c1OP(C)(=O)Nc1ccc(SC(F)(F)F)cc1` (stereo not drawn), inactive: 1.17%.
On to `CP(=O)(Nc1ccccc1Br)Oc1ccccc1` (stereo not drawn), for which the activation was inactive: 0.06%.
With `COc1ccccc1OP(C)(=O)Nc1ccccc1` (stereo not drawn) the figure was inactive: 0.61%; with `CP(=S)(Nn1cnnc1)Oc1ccccc1` (stereo not drawn), inactive: 0.62%; with `CCOC(=O)c1ccc(NP(C)(=O)Oc2ccc(Cl)cc2)cc1` (stereo not drawn), inactive: -0.47%.
To `CP(=O)(OC12CC3CC(CC(C3)C1)C2)OC12CC3CC(CC(C3)C1)C2` belongs inactive: 0.05%; to `CN(C)C(=O)c1c([N+](=O)[O-])cc([N+](=O)[O-])cc1[N+](=O)[O-]`, inactive: 0.61%.
With `COc1ccccc1OP(C)(=O)Nc1ccccc1Br` (stereo not drawn) the figure was inactive: -0.09%.
On to `CC(C)(C)c1ccc(OP(C)(=O)O)cc1`, for which the activation was inactive: 0.45%.
To `CP(=O)(Nc1ccc(Cl)cc1)Oc1ccc(F)cc1` (stereo not drawn) belongs inactive: 0.43%.
For `O=C(OCCCN1CCCC1)C(O)(c1ccccc1)C1CCCCC1` (stereo not drawn), the activation is inactive: -0.34%.
Consider `COc1ccccc1OP(C)(=O)Nc1c(C)n(C)n(-c2ccccc2)c1=O` (stereo not drawn), for which the activation was inactive: 0.49%.
To `CCc1ccc(OP(C)(=O)Nc2cccnc2)cc1` (stereo not drawn) belongs inactive: 0.52%.
With `CP(=O)(Oc1ccccc1)N1CCOC1=O` (stereo not drawn) the figure was inactive: 0.6%; with `COc1ccc(OP(C)(=O)Nc2ccc(Br)cc2)cc1` (stereo not drawn), inactive: 1.18%; with `CCN(CC)CC(O)COC(=O)C(O)(c1ccccc1)C1CCCCC1` (stereo not drawn), inactive: 0.9%.
With `COc1ccccc1OP(C)(=O)Nc1ccc(C)cc1C` (stereo not drawn) the figure was inactive: 0.71%; with `CP(=O)(Nc1ccccn1)Oc1ccccc1` (stereo not drawn), inactive: 1.01%.
For `CCc1ccc(OP(C)(=O)O)cc1`, the activation is inactive: 0.27%.
To `Cc1c(NP(C)(=O)Oc2ccc(C(C)C)cc2)c(=O)n(-c2ccccc2)n1C` (stereo not drawn) belongs inactive: -0.24%; to `O=[N+]([O-])c1cc([N+](=O)[O-])c(Nc2ccccn2)c([N+](=O)[O-])c1`, inactive: 1.46%; to `COc1ccc(OP(C)(=O)Nc2ccccn2)cc1` (stereo not drawn), inactive: 0.69%.
In the case of `CN(C)CCOC(=O)C(O)(c1ccccc1)C1CCCC1` (stereo not drawn), the activation was inactive: -0.35%.
To `COc1ccccc1OP(C)(=O)Nc1ccc(Br)cc1` (stereo not drawn) belongs inactive: 0.24%; to `CP(=O)(Nc1ccc(Cl)cc1Cl)Oc1ccccc1` (stereo not drawn), inactive: -0.35%.
To `CP(=O)(OCCOc1ccccc1)OCCOc1ccccc1` belongs inactive: 0.89%; to `Cc1nc2ccc3ccccc3c2o1.O=[N+]([O-])c1cc([N+](=O)[O-])c(O)c([N+](=O)[O-])c1`, inactive: 0.48%.
On to `COc1ccccc1OP(C)(=O)Nc1ccc(C)c(C)c1` (stereo not drawn), for which the activation was inactive: 0.68%.
With `COc1ccc(OP(C)(=O)Nc2ccccc2Br)cc1` (stereo not drawn) the figure was inactive: -0.31%; with `Cc1cc(C)cc(OP(C)(=O)Nc2cccc(C(F)(F)F)c2)c1` (stereo not drawn), inactive: -0.94%.
To `CP(=O)(Nc1ccccc1)Oc1ccc(F)cc1` (stereo not drawn) belongs inactive: -0.23%; to `CCCCCOc1ccc(NP(C)(=O)Oc2ccc(Cl)cc2Cl)cc1` (stereo not drawn), inactive: -0.37%.
To `CCN(CC)CCCOC(=O)C(O)(c1ccccc1)C1CCCCC1` (stereo not drawn) belongs inactive: 1.22%.
`CCOC(=O)c1ccc(NP(C)(=O)Oc2ccc(F)cc2)cc1` (stereo not drawn): the activation is inactive: 0.12%.
Take `COc1ccc(OP(C)(=O)Nc2ccc(SC(F)(F)F)cc2)cc1` (stereo not drawn): the activation is inactive: 0.93%.
With `O=C(OC1CN2CCC1CC2)c1ccc([N+](=O)[O-])cc1` (stereo not drawn) the figure was inactive: 0.75%; with `O=C(OCCN1CCN(CCOCc2ccccc2)CC1)C(O)(c1ccccc1)c1ccccc1`, inactive: 0.57%.
With `CP(=O)(Nc1ccccc1F)Oc1ccccc1` (stereo not drawn) the figure was inactive: -0.73%; with `CC(C)c1ccc(OP(C)(=O)Nc2ccc(SC(F)(F)F)cc2)cc1` (stereo not drawn), inactive: 0.08%; with `Cc1ccccc1NP(C)(=O)Nc1ccccc1C`, inactive: 0.51%.
To `CP(=O)(Nc1ccc2c(c1)OCCO2)Oc1ccccc1` (stereo not drawn) belongs inactive: 0.71%; to `CCOP(C)(=S)SCC(=O)NC(C)(CC)C(=O)O` (stereo not drawn), inactive: 0.74%.
For the compound `CP(=O)(Nc1ccc(SC(F)(F)F)cc1)Oc1ccc(F)cc1` (stereo not drawn), the activation was inactive: 1%.
With `O=[N+]([O-])c1ccc(OP2(=O)COCCO2)cc1` (stereo not drawn) the figure was inactive: 0.32%.
To `Cc1cc(-c2cccc3ccccc23)c(C)cn1.O=[N+]([O-])c1cc([N+](=O)[O-])c(O)c([N+](=O)[O-])c1` belongs inactive: -1.77%; to `O=[N+]([O-])c1cc([N+](=O)[O-])c(NCC2CCS(=O)(=O)C2)c([N+](=O)[O-])c1` (stereo not drawn), inactive: 0.65%; to `CN(C)CCOC(=O)C(O)(c1ccccc1)C1CCCCC1` (stereo not drawn), inactive: -0.5%.
With `COc1ccc(NP(C)(=O)Oc2ccccc2OC)cc1` (stereo not drawn) the figure was inactive: 0.38%.
In the case of `COc1ccc(OP(C)(=O)Nc2cccc(Br)c2)cc1` (stereo not drawn), the activation was inactive: -0.4%.
